The text below walks through data of publication PMC10652121, “The mutations on the envelope glycoprotein D contribute to the enhanced neurotropism of the pseudorabies virus variant” (2023).

The target in test [1] is SC-gB (envelope glycoprotein B of the PRV SC strain, ectodomain residues 59-756) (pseudorabies virus, SC strain).
In test [2] the target is TJ-gB (envelope glycoprotein B of the PRV TJ strain, ectodomain residues 59-756) (pseudorabies virus, TJ strain).

In the case of “murine PILRα (paired immunoglobulin-like type 2 receptor alpha), ectodomain”, the dissociation constant Kd was found to be 189 nM in test [1] and 94 nM in test [2].
